PubChem BioAssay AID1259414, Drosophila RNAi Screening Center | 2018
Purpose: 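Host factors increasing or decreasing Wolbachia levels in cultured fly cells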 (primary screen). Cells: Drosophila JW18 cells infected with Wolbachia. Reagents: long dsRNA against Drosophila genes, 0.25 µg dsRNA per well of a 384-well plate. Duration: 5 days. Conditions: cells persistently infected with Wolbachia before knock-down; no added drug. Measurement: 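Automated imaging of bacterial rRNA staining divided by host cell count, reported as plate-normalised robust z-score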. Scale: Wolbachia per cell robust z: higher = more Wolbachia per host cell than the plate typical. Active means: 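Hit when robust z is 1.5 or more, or -1.5 or less, in at least two of three replicates; excludes dsRNAs with several or no targets, genes not expressed in JW18 and well A1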.
The deposit covers about 24,000 reagents; shown is an unselected part of those that have a named target and a result. Over the whole deposit, about 1,210 (5%) got an active call. 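Inactive calls also include excluded dsRNAs with several or no targets, genes unexpressed in JW18, and well A1, regardless of score.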 The numbers tell different reagents against one gene apart. A plus sign joins genes that one reagent is predicted to hit.

With knock-down of CheA87a, the screen gave Wolbachia per cell robust z, rep 1 = -1.71; Wolbachia per cell robust z, rep 2 = 0.0773; Wolbachia per cell robust z, rep 3 = -1.31; inactive. After knock-down of CG14410, the record shows Wolbachia per cell robust z, rep 1 = 0.102; Wolbachia per cell robust z, rep 2 = -3.34; Wolbachia per cell robust z, rep 3 = -3.82; active. Knock-down of Nxt1 #1 resulted in: Wolbachia per cell robust z, rep 1 = -1.62; Wolbachia per cell robust z, rep 2 = 0.422; Wolbachia per cell robust z, rep 3 = 0.196; inactive. Against Nxt1 #2, the entry reads Wolbachia per cell robust z, rep 1 = -0.166; Wolbachia per cell robust z, rep 2 = 0.543; Wolbachia per cell robust z, rep 3 = 0.719; inactive.

In a second layout: 2 of the entries above.
target gene | dsRNA no. | Wolbachia per cell robust z, rep 1 | Wolbachia per cell robust z, rep 2 | Wolbachia per cell robust z, rep 3 | Outcome
Nxt1 | 1 | -1.62 | 0.422 | 0.196 | inactive
Nxt1 | 2 | -0.166 | 0.543 | 0.719 | inactive

More records follow.
TfIIA-S gave Wolbachia per cell robust z, rep 1 = -0.042; Wolbachia per cell robust z, rep 2 = -2.57; Wolbachia per cell robust z, rep 3 = 0.381; inactive. Mabi #1 scored Wolbachia per cell robust z, rep 1 = -1.09; Wolbachia per cell robust z, rep 2 = 0.114; Wolbachia per cell robust z, rep 3 = 0.145; inactive. After knock-down of Mabi #2, the record shows Wolbachia per cell robust z, rep 1 = 0.178; Wolbachia per cell robust z, rep 2 = -1.02; Wolbachia per cell robust z, rep 3 = 1.08; inactive. For CG11089 + CG31381 #1, the entry reads Wolbachia per cell robust z, rep 1 = -1.36; Wolbachia per cell robust z, rep 2 = -0.709; Wolbachia per cell robust z, rep 3 = -1.32; inactive. Against CG11089 + CG31381 #2, the entry reads Wolbachia per cell robust z, rep 1 = 0.385; Wolbachia per cell robust z, rep 2 = -1.16; Wolbachia per cell robust z, rep 3 = 0.677; inactive. Against CG30395, the entry reads Wolbachia per cell robust z, rep 1 = -4.8; Wolbachia per cell robust z, rep 2 = -0.301; Wolbachia per cell robust z, rep 3 = -0.0786; inactive.

For CG10903 the deposit lists Wolbachia per cell robust z, rep 1 = 0.839; Wolbachia per cell robust z, rep 2 = -0.938; Wolbachia per cell robust z, rep 3 = 0.754; inactive. For Tpi #1, the values are Wolbachia per cell robust z, rep 1 = -0.971; Wolbachia per cell robust z, rep 2 = -0.465; Wolbachia per cell robust z, rep 3 = -0.508; inactive. With knock-down of Tpi #2, the record shows Wolbachia per cell robust z, rep 1 = 0.105; Wolbachia per cell robust z, rep 2 = -0.967; Wolbachia per cell robust z, rep 3 = -0.266; inactive.
